Each structure is given as a SMILES string.

The subject of the experiment is Mycobacterium tuberculosis. Nature of the experiment: Binding affinity to Mycobacterium tuberculosis MmpL3 assessed as association constant by SPR analysis.

`O=C(CNc1cccc(OC(F)(F)F)c1)NC12CC3CC(CC(C3)C1)C2`: the Ka stood at 1580 M⁻¹ s⁻¹.

As to `C[C@@H]1[C@H]2C[C@@H](C[C@H]1NC(=O)CNc1cccc(Cl)c1)C2(C)C`, the Ka came to 1520 M⁻¹ s⁻¹.

Source of the values: ChEMBL document CHEMBL5316284, “Structural Determinants of Indole-2-carboxamides: Identification of Lead Acetamides with Pan Antimycobacterial Activity” (J Med Chem, 2023).
